The record followed here is PMC8389807 (Journal of Medicinal Chemistry, 2021).

One series relates to HIV-1 (NL4.3). In kind it is cell-based. The following applies: anti-HIV EC50 ratio.
With `O=C(CCOCC(COCCC(=O)NC(Cc1c[nH]c2c(-c3cc(C(=O)O)cc(C(=O)O)c3)cccc12)C(=O)O)(COCCC(=O)NC(Cc1c[nH]c2c(-c3cc(C(=O)O)cc(C(=O)O)c3)cccc12)C(=O)O)COCCC(=O)NC(Cc1c[nH]c2c(-c3cc(C(=O)O)cc(C(=O)O)c3)cccc12)C(=O)O)NC(Cc1c[nH]c2c(-c3cc(C(=O)O)cc(C(=O)O)c3)cccc12)C(=O)O` (stereo not drawn) [Compound 23], the “fold more potent than C2 counterpart AL-471” value came to 3.5 fold.

Staying with this series, now noted: selectivity index (CC50/EC50), MT-4 cells.
For the compound `O=C(CCC(CCC(=O)NC(Cc1c[nH]c2c(-c3cc(C(=O)O)cc(C(=O)O)c3)cccc12)C(=O)O)(CCC(=O)NC(Cc1c[nH]c2c(-c3cc(C(=O)O)cc(C(=O)O)c3)cccc12)C(=O)O)[N+](=O)[O-])NC(Cc1c[nH]c2c(-c3cc(C(=O)O)cc(C(=O)O)c3)cccc12)C(=O)O` (stereo not drawn) [Compound 16], the SI worked out at 232.6. In the case of `O=C(CCOCC(COCCC(=O)NC(Cc1c[nH]c2c(-c3cc(C(=O)O)cc(C(=O)O)c3)cccc12)C(=O)O)(COCCC(=O)NC(Cc1c[nH]c2c(-c3cc(C(=O)O)cc(C(=O)O)c3)cccc12)C(=O)O)COCCC(=O)NC(Cc1c[nH]c2c(-c3cc(C(=O)O)cc(C(=O)O)c3)cccc12)C(=O)O)NC(Cc1c[nH]c2c(-c3cc(C(=O)O)cc(C(=O)O)c3)cccc12)C(=O)O` (stereo not drawn) [Compound 23], the SI is recorded as 4687.5. The compound `O=C(CCC(CCC(=O)NC(Cc1c(-c2cc(C(=O)O)cc(C(=O)O)c2)[nH]c2ccccc12)C(=O)O)(CCC(=O)NC(Cc1c(-c2cc(C(=O)O)cc(C(=O)O)c2)[nH]c2ccccc12)C(=O)O)[N+](=O)[O-])NC(Cc1c(-c2cc(C(=O)O)cc(C(=O)O)c2)[nH]c2ccccc12)C(=O)O` (stereo not drawn) [AL-470, reference compound] yielded an SI of 370. For `O=C(CCOCC(COCCC(=O)NC(Cc1c(-c2ccc(C(=O)O)cc2)[nH]c2c(-c3ccc(C(=O)O)cc3)cccc12)C(=O)O)(COCCC(=O)NC(Cc1c(-c2ccc(C(=O)O)cc2)[nH]c2c(-c3ccc(C(=O)O)cc3)cccc12)C(=O)O)COCCC(=O)NC(Cc1c(-c2ccc(C(=O)O)cc2)[nH]c2c(-c3ccc(C(=O)O)cc3)cccc12)C(=O)O)NC(Cc1c(-c2ccc(C(=O)O)cc2)[nH]c2c(-c3ccc(C(=O)O)cc3)cccc12)C(=O)O` (stereo not drawn) [Compound 32], the SI is recorded as 476.2. On the same count and under the same terms, the same measure for `O=C(CCOCC(COCCC(=O)NC(Cc1c[nH]c2c(-c3cccc(C(=O)O)c3)cccc12)C(=O)O)(COCCC(=O)NC(Cc1c[nH]c2c(-c3cccc(C(=O)O)c3)cccc12)C(=O)O)COCCC(=O)NC(Cc1c[nH]c2c(-c3cccc(C(=O)O)c3)cccc12)C(=O)O)NC(Cc1c[nH]c2c(-c3cccc(C(=O)O)c3)cccc12)C(=O)O` (stereo not drawn) [Compound 21]: 7.1; for `CN[C@@H]1[C@H](O[C@@H]2OC[C@@H](O)[C@H](O)[C@H]2O)[C@@H](O)[C@H](O[C@H]2c3cc(C)c(C(=O)N[C@H](C)C(=O)O)c(O)c3-c3c(cc4c(c3O)C(=O)c3cc(OC)cc(O)c3C4=O)[C@@H]2O)O[C@@H]1C` [PRM-A, pradimicin A, reference compound]: 30.3. Still for that read-out and setting: next, `O=C(CCOCC(COCCC(=O)NC(Cc1c(-c2cccc(C(=O)O)c2)[nH]c2ccccc12)C(=O)O)(COCCC(=O)NC(Cc1c(-c2cccc(C(=O)O)c2)[nH]c2ccccc12)C(=O)O)COCCC(=O)NC(Cc1c(-c2cccc(C(=O)O)c2)[nH]c2ccccc12)C(=O)O)NC(Cc1c(-c2cccc(C(=O)O)c2)[nH]c2ccccc12)C(=O)O` (stereo not drawn) [III, reference compound]: 50; `O=C(CCC(CCC(=O)NC(Cc1c(-c2ccc(C(=O)O)cc2)[nH]c2ccccc12)C(=O)O)(CCC(=O)NC(Cc1c(-c2ccc(C(=O)O)cc2)[nH]c2ccccc12)C(=O)O)[N+](=O)[O-])NC(Cc1c(-c2ccc(C(=O)O)cc2)[nH]c2ccccc12)C(=O)O` (stereo not drawn) [II, reference compound]: 29.6; `O=C(CCOCC(COCCC(=O)NC(Cc1c(-c2ccc(C(=O)O)cc2)[nH]c2ccccc12)C(=O)O)(COCCC(=O)NC(Cc1c(-c2ccc(C(=O)O)cc2)[nH]c2ccccc12)C(=O)O)COCCC(=O)NC(Cc1c(-c2ccc(C(=O)O)cc2)[nH]c2ccccc12)C(=O)O)NC(Cc1c(-c2ccc(C(=O)O)cc2)[nH]c2ccccc12)C(=O)O` (stereo not drawn) [IV, reference compound]: 137. `O=C(CCOCC(COCCC(=O)NC(Cc1c[nH]c2c(-c3ccc(C(=O)O)cc3)cccc12)C(=O)O)(COCCC(=O)NC(Cc1c[nH]c2c(-c3ccc(C(=O)O)cc3)cccc12)C(=O)O)COCCC(=O)NC(Cc1c[nH]c2c(-c3ccc(C(=O)O)cc3)cccc12)C(=O)O)NC(Cc1c[nH]c2c(-c3ccc(C(=O)O)cc3)cccc12)C(=O)O` (stereo not drawn) [Compound 22] had an SI of 15.5. Compound `O=C(CCC(CCC(=O)NC(Cc1c(-c2cccc(C(=O)O)c2)[nH]c2ccccc12)C(=O)O)(CCC(=O)NC(Cc1c(-c2cccc(C(=O)O)c2)[nH]c2ccccc12)C(=O)O)[N+](=O)[O-])NC(Cc1c(-c2cccc(C(=O)O)c2)[nH]c2ccccc12)C(=O)O` (stereo not drawn) [I, reference compound] displayed an SI of 6.
